Measured values from several laboratories, pooled; numbers as filed in NIAID ChemDB.

Shared fields: whole-cell or culture tests; species: Candida albicans; read-out: MIC

Neighbouring rows are from separate reports.

compound	strain	value
CCCCCCCCCCCCN[C@H]1CCCNC(=O)[C@@H]2C[C@H](N)CN2C(=O)[C@H]([C@@H](C)O)NC(=O)[C@H](CCc2ccc(O)cc2)NC(=O)[C@@H]2C[C@@H](O)CN2C(=O)[C@H]([C@@H](C)O)NC1=O	ATCC 38247	1.56 µg/mL
Cc1c(O)cccc1C(=O)N[C@@H](CSc1ccccc1)[C@H](O)CN1C[C@H]2CCCC[C@H]2C[C@H]1C(=O)NC(C)(C)C	I121	64 µg/mL
CN(CCCC#CC(C)(C)C)c1cccc2c1CCC(=O)N2	Clinical isolate 5	15.6 µg/mL
Nc1ncnc2c1ncn2[C@@H]1O[C@H](C(=O)O)[C@@H](NC(=O)c2ccccc2)[C@H]1O	FP633	>100 µg/mL
CCCCCCCCNC1CCCNC(=O)[C@@H]2C[C@H](N)CN2C(=O)[C@H]([C@@H](C)O)NC(=O)[C@H](CCc2ccc(O)cc2)NC(=O)[C@@H]2C[C@@H](O)CN2C(=O)[C@H]([C@@H](C)O)NC1=O	ATCC 62376	0.2 µg/mL
c1ccc(-c2ccc(COC(Cn3ccnc3)c3ccccc3)cc2)cc1	CA12	>128 µg/mL
CC(=O)N[C@H]1CCCNC(=O)[C@@H]2C[C@H](N)CN2C(=O)[C@H]([C@@H](C)O)NC(=O)[C@H](CCc2ccc(O)cc2)NC(=O)[C@@H]2C[C@@H](O)CN2C(=O)[C@H]([C@@H](C)O)NC1=O	ATCC 38247	>100 µg/mL
O[C@](Cn1cncn1)(Cn1cnc(/C=C/c2ccc(OCC(F)(F)C(F)F)cc2)n1)c1ccc(F)cc1F	Isolate V1-5	1 µg/mL
C[C@H]1[C@H](O)[C@@H](C)/C=C/C=C/C=C/C=C/C=C/C=C/C=C/[C@H](O[C@@H]2O[C@H](C)[C@@H](O)[C@H](N)[C@@H]2O)C[C@@H]2O[C@](O)(C[C@@H](O)C[C@@H](O)CC[C@H](O)[C@@H](O)C[C@@H](O)CC(=O)O[C@H]1C)C[C@H](O)[C@H]2C(=O)O	A25941 (amphotericin B-resistant)	2 µg/mL
Cc1ccc(C(Cn2ccnc2)OCc2cccc3ccccc23)cc1	PR1	>128 µg/mL
COC(c1ccccc1)C(N)C(=O)N[C@H]1[C@@H](O)[C@H](n2cnc3c(N)ncnc32)O[C@@H]1C(=O)O	FP633	>100 µg/mL
C[C@@H](n1cnc2cc(F)c(F)cc2c1=O)[C@](O)(Cn1cncn1)c1ccc(F)cc1F	60 strains	0.07 µg/mL
Clc1ccc(C(Cn2ccnc2)OC/C=C/c2ccccc2)cc1	CA7	128 µg/mL
CCCCCOc1ccc(-c2ccc(-c3ccc(C(=O)N[C@H]4CCCNC(=O)C5[C@@H](O)[C@@H](O)N5C(=O)C(C(C)O)NC(=O)C(CCc5ccc(O)cc5)NC(=O)C5C[C@@H](O)CN5C(=O)C(C(C)O)NC4=O)cc3)cc2)cc1	ATCC CCH442	0.1 µg/mL
Clc1ccc(C(Cn2ccnc2)OCc2ccc(-c3ccccc3)cc2)cc1	Y0109	>128 µg/mL
CCCCCOc1ccc(-c2ccc(-c3ccc(C(=O)N[C@H]4CCCNC(=O)[C@@H]5C[C@H](NC(C)=O)CN5C(=O)[C@H]([C@@H](C)O)NC(=O)[C@H](CCc5ccc(O)cc5)NC(=O)[C@@H]5C[C@@H](O)CN5C(=O)[C@H]([C@@H](C)O)NC4=O)cc3)cc2)cc1	ATCC CCH442	0.2 µg/mL
C[C@@H](n1cnc2cc(Cl)ccc2c1=O)[C@](O)(Cn1cncn1)c1ccccc1F	406 strains	≤0.03 µg/mL
COc1ccc(C[C@H](N)C(=O)N[C@H]2[C@@H](O)[C@H](n3cnc4c(N)ncnc43)O[C@@H]2C(=O)NCC(=O)O)cc1	FP633	6.2 µg/mL
CCCCCOc1ccc(-c2ccc(-c3ccc(C(=O)N[C@H]4CCCNC(=O)C5C[C@H](NC(=O)Nc6ccccc6)CN5C(=O)C(C(C)O)NC(=O)C(CCc5ccc(O)cc5)NC(=O)C5C[C@@H](O)CN5C(=O)C(C(C)O)NC4=O)cc3)cc2)cc1	ATCC CCH442	12.5 µg/mL
Cc1c(Sc2ccccc2)[n+](=O)c2cc(Cl)ccc2n1[O-]	Clinical isolate 14	15.6 µg/mL
CCCCCOc1ccc(-c2ccc(-c3ccc(C(=O)N[C@H]4CCCNC(=O)[C@@H]5C[C@H](N)CN5C(=O)[C@H](Cc5ccc(O)cc5)NC(=O)C(CCc5ccc(O)cc5)NC(=O)[C@@H]5C[C@@H](O)CN5C(=O)[C@H]([C@@H](C)O)NC4=O)cc3)cc2)cc1	ATCC 10231	0.78 µg/mL
CCCCCCCCCCCCCCC(=O)N[C@H]1CCCNC(=O)[C@@H]2C[C@H](N)CN2C(=O)[C@H]([C@@H](C)O)NC(=O)[C@H](CCc2ccc(O)cc2)NC(=O)[C@@H]2C[C@@H](O)CN2C(=O)[C@H]([C@@H](C)O)NC1=O	ATCC 38247	0.78 µg/mL
CCCCCc1ccc(C(=O)N[C@H]2CCCNC(=O)C3C[C@H](N)CN3C(=O)C(C(C)O)NC(=O)C(CCc3ccc(O)cc3)NC(=O)C3C[C@@H](O)CN3C(=O)C(C(C)O)NC2=O)cc1	ATCC 62376	25 µg/mL
Cc1nc2cc(Cl)ccc2c(=O)n1[C@H](C)[C@](O)(Cn1cncn1)c1ccc(F)cc1F	60 strains	0.15 µg/mL
Cc1c(S(=O)(=O)c2ccccc2)[n+](=O)c2cc(Cl)ccc2n1[O-]	Clinical isolate 6	31.25 µg/mL
CCC(C)CC(C)CCCCCCCCC(=O)NC1C[C@H](O)[C@@H](O)NC(=O)[C@@H]2[C@@H](O)[C@@H](C)CN2C(=O)[C@H]([C@H](O)CC(N)=O)NC(=O)[C@H](C(O)[C@H](O)c2ccc(O)cc2)NC(=O)[C@@H]2C[C@@H](O)CN2C(=O)[C@H]([C@@H](C)O)NC1=O	MY1783	0.25 µg/mL
NC(=NC1CCCC1)c1ccc(-c2ccc(-c3ccc(C(N)=NC4CCCC4)cc3)o2)cc1	Isolate CA1548	12.5 µg/mL
C[C@@H](n1cnc2cc(N3CCN(c4ccc([N+](=O)[O-])cc4)CC3)ccc2c1=O)[C@](O)(Cn1cncn1)c1ccc(F)cc1F	60 strains	0.15 µg/mL
CCCCCOc1ccc(-c2ccc(-c3ccc(C(=O)N[C@H]4CCCNC(=O)[C@@H]5C[C@H](CN)CN5C(=O)[C@H]([C@@H](C)O)NC(=O)[C@H](CCc5ccc(O)cc5)NC(=O)[C@@H]5C[C@@H](O)CN5C(=O)[C@H]([C@@H](C)O)NC4=O)cc3)cc2)cc1	ATCC 38247	0.39 µg/mL
CCCCCCCCOc1ccc(-c2ccc(-c3ccc(CN[C@H]4CCCNC(=O)C5C[C@H](N)CN5C(=O)C(C(C)O)NC(=O)C(CCc5ccc(O)cc5)NC(=O)C5C[C@@H](O)CN5C(=O)C(C(C)O)NC4=O)cc3)cc2)cc1	ATCC 62376	0.39 µg/mL
[2H]c1ccc(COC[C@@H]2NC(=O)[C@@H]3C[C@@H](O)CN3C(=O)[C@H]([C@@H](C)O)NC(=O)[C@@H](NC(=O)c3ccc(-c4ccc(-c5ccc(OCCCCC)cc5)cc4)cc3)CCCNC(=O)[C@@H]3C[C@H](N)CN3C(=O)[C@H]([C@@H](C)O)NC2=O)cc1	ATCC 62376	>100 µg/mL
CCCC(O)C/C=C\C=C\C(=O)OC[C@H]1O[C@@H](O[C@@H]2[C@H](OC(=O)/C=C/C=C/CC(O)/C(C)=C/C=C/CCC(C)CC)[C@@H](O)[C@]3(OCc4cc(O)cc(O)c43)O[C@@H]2CO)[C@H](O)[C@@H](O)[C@H]1O	MY1585	2 µg/mL
CC(C)(C)c1ccc(COC(Cn2ccnc2)c2ccccc2)cc1	3M	>128 µg/mL
C[C@@H](n1cnc2ccc(Cl)cc2c1=O)[C@](O)(Cn1cncn1)c1ccc(F)cc1F	60 strains	0.07 µg/mL
CCCCCOc1ccc(-c2ccc(-c3ccc(C(=O)N[C@H]4CCCNC(=O)C5C[C@@H](O)N5C(=O)C(C(C)O)NC(=O)C(CCc5ccc(O)cc5)NC(=O)C5C[C@@H](O)CN5C(=O)C(C(C)O)NC4=O)cc3)cc2)cc1	ATCC CCH442	0.78 µg/mL
Cc1c(Cl)[n+](=O)c2cc(Cl)ccc2n1[O-]	Clinical isolate 24	15.6 µg/mL
Nc1ncnc2c1ncn2[C@@H]1O[C@H](C(=O)O)[C@@H](NC(=O)[C@H](N)Cc2ccccc2)[C@H]1O	FP633	>100 µg/mL
CCCCCOc1ccc(-c2ccc(-c3ccc(C(=O)N[C@H]4CCCNC(=O)[C@@H]5C[C@H](NC(=O)CCC(=O)O)CN5C(=O)[C@H]([C@@H](C)O)NC(=O)[C@H](CCc5ccc(O)cc5)NC(=O)[C@@H]5C[C@@H](O)CN5C(=O)[C@H]([C@@H](C)O)NC4=O)cc3)cc2)cc1	ATCC CCH442	1.56 µg/mL
CCCCCOc1ccc(-c2ccc(-c3ccc(C(=O)N[C@H]4CCCNC(=O)[C@@H]5C[C@H](N)CN5C(=O)[C@H]([C@@H](C)O)NC(=O)[C@H](CCc5ccccc5)NC(=O)[C@@H]5C[C@@H](O)CN5C(=O)[C@H]([C@@H](C)O)NC4=O)cc3)cc2)cc1	ATCC 62376	1.56 µg/mL
CCOc1cc2c(cc1F)n([O-])c(C)c(Cl)[n+]2=O	Clinical isolate 14	62.5 µg/mL
CC(/C=C/C=C(\C)C(O)C(C)C(=O)O[C@H]1C[C@@H](C)C=C2C=C[C@]3(C)O[C@@H](O)CC(=O)[C@]3(C)[C@H]21)=C\C=C\C(=O)O	AC3412	>100 µg/mL
Nc1ncnc2c1ncn2[C@@H]1O[C@H](C(=O)O)[C@@H](NC(=O)C(N)Cc2ccccc2Cl)[C@H]1O	FP633	12.5 µg/mL

Repeating the final 3 entries:

compound | strain | value
CCOc1cc2c(cc1F)n([O-])c(C)c(Cl)[n+]2=O | Clinical isolate 14 | 62.5 µg/mL
CC(/C=C/C=C(\C)C(O)C(C)C(=O)O[C@H]1C[C@@H](C)C=C2C=C[C@]3(C)O[C@@H](O)CC(=O)[C@]3(C)[C@H]21)=C\C=C\C(=O)O | AC3412 | >100 µg/mL
Nc1ncnc2c1ncn2[C@@H]1O[C@H](C(=O)O)[C@@H](NC(=O)C(N)Cc2ccccc2Cl)[C@H]1O | FP633 | 12.5 µg/mL